Results of unrelated studies side by side (data: NIAID ChemDB).

Common to all: whole-cell or culture tests; organism: Mycobacterium tuberculosis

A number after MIC or MFC names an inhibition level or a share of isolates.

structure | dose | strain | changes | method | measure | result
NNC(=O)C1=CCN(CC(=O)c2ccc([N+](=O)[O-])cc2)C=C1 | 6.25 µg/mL | H37Rv | - | resazurin | inhibition | 99%
C=CCSS/C=C/CS(=O)CC=C | - | INH-r | - | - | MIC | >12.5 µg/mL
NNC(=O)c1ccncc1 | - | H37Rv (drug-susceptible) | - | - | MIC | 1 µM
O=[N+]([O-])c1ccc(Oc2cnc3nc(-c4cccc(O)c4O)[nH]c3c2)cc1 | - | H37Rv | - | resazurin / absorbance | MIC80 | 0.6 µM
CCOC(=O)c1ccc2c(c1)nc(-c1ccc(C(F)(F)F)cc1)n2CCN1CCCOC1 | - | H37Rv | - | resazurin / fluorescence | EC90 | 44.46 µM
Oc1c(Cl)cc(Cl)cc1Sc1cc(Cl)cc(Cl)c1O | - | - | - | - | MIC50 | 32 µg/mL
CC1(C)NC(N)N=C(N)N1OCCCOc1ccc2ccccc2c1 | - | H37Rv | - | resazurin / fluorescence | MIC90 | 2 µM
COc1cc(Cc2cnc(/N=C3\C(=O)N(CN4CCN(c5ccc(Cl)cc5)CC4)c4ccc(F)cc43)nc2N)cc(OC)c1OC | - | H37Rv | - | - | EC50 | >6.25 µg/mL
CC1=NN(c2ccccc2)C(=O)C1N=Nc1c(O)cc(S(=O)(=O)O)c2ccccc12 | 12.5 µg/mL | H37Rv | - | BACTEC | inhibition | 13%
CC(=O)NC[C@H]1CN(c2ccc(N3CCOCC3)c(F)c2)C(=O)O1 | - | - | - | - | MIC50 | 0.25 µg/mL
NC(=S)c1ccccn1 | - | H37Rv (drug-susceptible) | - | - | MIC | 256 µM
CCOC(=O)c1ccc2c(c1)nc(-c1ccc(C(F)(F)F)cc1)n2CCN1CCCC1=O | - | H37Rv | - | resazurin / fluorescence | EC50 | >100 µM
Cc1cc(N=C(N)N)ccc1-c1ccc(-c2ccc(N=C(N)N)cc2C)o1 | - | - | - | - | MIC | >12.5 µg/mL
N=c1c2ccccc2nc2oc3ccccc3n12 | 6.25 µg/mL | H37Rv | - | resazurin | inhibition | 3%
CCOC(=O)c1ccc2c(c1)nc(-c1ccc(O)cc1)n2CCN1CCCOC1 | - | H37Rv | - | resazurin / fluorescence | EC90 | >100 µM
Nc1c(-c2c(Cl)cccc2Cl)[n+]([O-])c2ccccc2[n+]1[O-] | - | TAC-R | - | - | MIC | 6.3 µg/mL
CCOC(=O)c1ccc2c(c1)nc(-c1ccc(O)c(OC)c1)n2CCN1CCCOC1 | - | H37Rv | - | resazurin / fluorescence | EC90 | 55.82 µM
CCOC(=O)C(=O)Nc1ccc(C(=O)OCC)o1 | - | H37Rv | - | BACTEC | MIC | ≥12.5 µg/mL
COc1cc(Cc2cnc(/N=C3\C(=O)N(CN4CCN(c5cccc(C(F)(F)F)c5)CC4)c4ccc(F)cc43)nc2N)cc(OC)c1OC | - | H37Rv | - | - | EC50 | >6.25 µg/mL
CN(C)C/C=C(/c1ccccc1)c1ccc(-c2ccc(Br)cc2)cc1 | - | ALI 552 | - | - | MIC | 20 µg/mL
NC(=S)c1cccnc1 | - | H37Rv (INH-resistant) | - | - | MIC | 1024 µM
Cn1c(=O)c2ncnnc2n(C)c1=O | - | H37Rv | - | BACTEC | MIC bound | >12.5 µg/mL
CCn1cc(C(=O)O)c(=O)c2cc(F)c(N3CCN(CC(=O)c4cccs4)CC3)cc21 | 6.25 µg/mL | H37Rv | - | - | inhibition | 41%
Cc1cc2nc3c(=O)[nH]c(=O)nc-3n(C[C@@H](O)[C@H](O)[C@H](O)CO)c2cc1C | 12.5 µg/mL | H37Rv | - | BACTEC | inhibition | 0%
CC[C@H]1OC(=O)[C@H](C)[C@@H](O[C@H]2C[C@@](C)(OC)[C@@H](O)[C@H](C)O2)[C@H](C)[C@@H](O[C@@H]2O[C@H](C)C[C@H](N(C)C)[C@H]2O)[C@](C)(OC)C[C@@H](C)C(=O)[C@H](C)[C@@H](O)[C@]1(C)O | - | Isolate 20 | - | - | MIC | <2 µg/mL
CCOC(=O)c1ccc2c(c1)nc(-c1ccc(Cl)cc1)n2CCN1CCCC1=O | - | H37Rv | - | resazurin / fluorescence | EC50 | >100 µM
NC1=NN(c2ccccc2)C(=O)C1C(=O)C(=O)Nc1ccc(Cl)cc1 | - | H37Rv | - | resazurin | MIC bound | >6.25 µg/mL
O=C1C[C@@H](c2ccc(O)cc2)Oc2c1c(O)cc(O[C@@H]1O[C@H](CO)[C@@H](O)[C@H](O)[C@H]1O)c2[C@H]1C(=O)c2c(O)cc(O)cc2O[C@@H]1c1ccc(O)cc1 | - | - | - | - | EC50 | >12.5 µg/mL
Cc1cc(C2CCCC2)nc2c(C3CCCC3)cccc12 | - | H37Rv | - | - | MIC | 6.25 µg/mL
COc1cc(Cc2cnc(/N=C3\C(=O)N(CN4CCN(C)CC4)c4ccc(F)cc43)nc2N)cc(OC)c1OC | - | H37Rv | - | - | EC50 | >6.25 µg/mL
CCCCCCCCCN1C(=O)CC(NCCCCCCC)C1=O | - | H37Rv | - | - | MIC | ≤20 µg/mL
O=[N+]([O-])c1cc2c(ccc3ccccc32)o1 | - | H37Rv | - | BACTEC | MIC | 0.39 µg/mL
Cc1ccccc1Cn1ccc2c3c(N)nc(N)nc3ccc21 | - | H37Rv | Overexpressing DHFR | resazurin / fluorescence | MIC90 | 15.6 µM
CCOC(=O)c1ccc2nc(-c3ccc(Cl)cc3)[nH]c2c1 | - | H37Rv | - | resazurin / fluorescence | EC50 | >100 µM
CCN(CC)CN1C(=O)/C(=N\c2ncc(Cc3cc(OC)c(OC)c(OC)c3)c(N)n2)c2cc(F)ccc21 | 6.25 µg/mL | H37Rv | - | - | inhibition | 19%
CCCCN1C(=O)C=CC1=O | - | H37Ra | - | - | MIC | ≤20 µg/mL
COc1ccc(-c2oc3cc(OC)cc(OC)c3c(=O)c2-c2c(-c3ccc(OC)cc3)oc3cc(OC)cc(OC)c3c2=O)cc1 | - | - | - | - | MIC | >12.5 µg/mL
NC(=S)c1ccncc1 | - | H37Rv (INH-resistant) | - | - | MIC | 256 µM
O=[N+]([O-])c1ccc(Oc2cnc3nc(-c4cc(O)ccc4Br)[nH]c3c2)cc1 | - | H37Rv | - | resazurin / absorbance | MIC80 | 1.1 µM
CCCCCCCCCN1C(=O)CC(SCCNC(=O)C2CC2)C1=O | - | H37Ra | - | - | MIC | ≤20 µg/mL
CN(C)c1ccc(C(N)=S)cc1 | - | H37Rv (INH-resistant) | - | - | MIC | 128 µM
CC(=O)c1ccc([N+](=O)ONNC(=O)c2cc(/C=C\c3ccco3)on2)cc1 | 6.25 µg/mL | H37Rv | - | resazurin | inhibition | 66%
NC(=S)c1ccccc1 | - | H37Rv (INH-resistant) | - | - | MIC | 1024 µM
O=C(N=Nn1c(O)c(O)c2ccccc21)c1ccco1 | 6.25 µg/mL | H37Rv | - | resazurin | inhibition | 41%
C=C1C(=O)O[C@H]2[C@@H](O)[C@H](C)[C@H]3C=CC(=O)[C@]3(C)[C@H](OC(=O)/C(C)=C/C)[C@@H]12 | 12.5 µg/mL | H37Rv | - | BACTEC | inhibition | 35%
COc1cccc(N2CCN(CN3C(=O)/C(=N\c4ncc(Cc5cc(OC)c(OC)c(OC)c5)c(N)n4)c4cc(F)ccc43)CC2)c1 | - | H37Rv | - | - | EC50 | <6.25 µg/mL
CCCCCCCCCCNC1CC(=O)N(CCCCCCCCCC)C1=O | - | H37Rv | - | - | MIC | ≤20 µg/mL
O=c1c2ccccc2oc2cc([N+](=O)[O-])cc([N+](=O)[O-])c12 | 12.5 µg/mL | H37Rv | - | BACTEC | inhibition | 99.9%
CC1(C)N=C(N)N=C(N)N1OCCCOc1ccc(Cl)cc1Cl | - | H37Rv | - | resazurin / fluorescence | MIC90 | 0.7 µM
CN(C)CC=C(c1ccc(Br)cc1)c1ccc(-c2ccc(Br)cc2)cc1 | - | ALI 3236 | - | - | MIC | 34 µg/mL
CO/N=C(/CN1CCN(c2cc3c(cc2F)c(=O)c(C(=O)O)cn3C2CC2)CC1)c1ccco1 | 6.25 µg/mL | H37Rv | - | - | inhibition | 45%
CC(=O)O[C@H]1C=C(C=O)[C@](O)(C=O)[C@@]2(C)CCCC(C)(C)C12 | - | H37Rv | - | BACTEC | MIC | ≥12.5 µg/mL
NNC(=O)c1ccncc1 | - | ATCC35801 | - | - | MIC | 0.06 µg/mL
Cc1ccc(C(N)=S)cc1 | - | H37Rv | - | - | MIC | 512 µM
Cc1ccc(/C(=C\CN(C)C)c2ccc(-c3ccc(Br)cc3)cc2)cc1 | - | H37Ra | - | - | MIC | 79 µg/mL
Cc1cccc(-c2nc3ncc(Oc4ccc([N+](=O)[O-])cc4)cc3[nH]2)c1 | - | H37Rv | - | resazurin / absorbance | MIC80 | 1.4 µM
NC(=O)c1ncn([C@@H]2O[C@H](CO)[C@@H](O)[C@H]2O)n1 | - | - | - | - | MIC50 | 16 µg/mL
N#Cc1ccc(Cn2ccc3c4c(N)nc(N)nc4ccc32)cc1 | - | H37Rv | Overexpressing DHFR | resazurin / fluorescence | MIC90 | >2 µM
S=C(S)NN1CCCC1 | - | INH-r | - | - | MIC | 0.4 µg/mL
CCn1cc(C(=O)O)c(=O)c2cc(F)c(N3CCN(C/C(=N/OCc4ccccc4)c4ccco4)CC3)cc21 | 6.25 µg/mL | H37Rv | - | - | inhibition | 74%
COc1cc(Cc2cnc(/N=C3\C(=O)N(CN4CCN(c5cc6c(cc5F)c(=O)c(C(=O)O)cn6C5CC5)CC4)c4ccc(F)cc43)nc2N)cc(OC)c1OC | 6.25 µg/mL | H37Rv | - | - | inhibition | 100%
O=c1cc(-c2ccc(O)c(-c3c(O)cc(O)c4c(=O)cc(-c5ccc(O)cc5)oc34)c2)oc2cc(O)cc(O)c12 | - | - | - | - | EC50 | >12.5 µg/mL
CCc1nc(N)nc(N)c1-c1ccc(Cl)cc1 | - | H37Rv | - | resazurin / fluorescence | EC50 | >100 µM
O=C(O)c1cn(C2CC2)c2cc(N3CCN(C/C(=N/O)c4ccco4)CC3)c(F)cc2c1=O | 6.25 µg/mL | H37Rv | - | - | inhibition | 26%
COc1ccc(-c2cc(=O)c3c(OC)c(-c4cc(OC)ccc4-c4cc(=O)c5c(OC)cc(OC)cc5o4)c(OC)cc3o2)cc1 | - | - | - | - | EC50 | >12.5 µg/mL
O=C1CSC2=NCCN12 | 6.25 µg/mL | H37Rv | - | BACTEC | inhibition | 0%
COc1ccc2cc3[n+](cc2c1OC)CCc1cc2c(cc1-3)OCO2 | - | - | - | - | MIC50 | 64 µg/mL
CC1(C)N=C(N)N=C(N)N1OCCc1ccc2ccccc2c1 | - | H37Rv | - | resazurin / fluorescence | MIC90 | 1 µM
CCCCCCCCC(=O)N1c2ccccc2Sc2ccccc21 | - | H37Rv | - | BACTEC | MIC bound | >12.5 µg/mL
O=C1C[C@@H](c2ccc(O)cc2)Oc2cc(O)c(-c3c(O)cc4c(c3O)C(=O)C[C@@H](c3ccc(O)cc3)O4)c(O)c21 | - | - | - | - | EC50 | >12.5 µg/mL
O=C1c2[nH]cnc2N(Cc2ccc(Cl)cc2)C2=NCCN12 | 6.25 µg/mL | H37Rv | - | resazurin | inhibition | -17%
O=[N+]([O-])c1ccc(Oc2cnc3nc(-c4ccccc4Cl)[nH]c3c2)cc1 | - | H37Rv | - | resazurin / absorbance | MIC80 | 1.7 µM
COC(=O)[C@H]1[C@H]2C[C@@H]3c4[nH]c5cc(OC)ccc5c4CCN3C[C@H]2C[C@@H](OC(=O)c2cc(OC)c(OC)c(OC)c2)[C@@H]1OC | - | - | - | - | MIC50 | 8 µg/mL
CCc1c(O)nc(Nc2nc3ccccc3[nH]2)[nH]c1=O | - | H37Rv | - | BACTEC | MIC bound | >6.25 µg/mL
CN(C)C/C=C(/c1ccc(-c2ccc(Br)cc2)cc1)c1ccc([N+](=O)[O-])cc1 | - | ALI 3415 | - | - | MIC | 36.5 µg/mL
COCOC(OCOC)c1ccc([N+](=O)ONNC(=O)c2cccnc2)o1 | 6.25 µg/mL | H37Rv | - | resazurin | inhibition | 84%
COc1cc(N=C(N)N)ccc1-c1ccc(-c2ccc(N=C(N)N)cc2OC)o1 | - | - | - | - | EC50 | >12.5 µg/mL
CCOC(=O)c1ccc2nc(C3C(c4ccccc4)C(=O)C3c3ccc(OC)cc3)[nH]c2c1 | - | H37Rv | - | resazurin / fluorescence | EC50 | >100 µM
COc1ccc(/C=N/NC(=O)CN(CC(=O)N/N=C/c2ccc(OC)cc2)N=O)cc1 | 12.5 µg/mL | H37Rv | - | BACTEC | inhibition | 25%
NNC(=O)c1ccncc1 | - | H37Rv | - | resazurin / absorbance | MIC80 | 0.3 µM
O=C(NNc1nnc(-c2ccccc2)s1)c1ccccc1 | - | H37Rv | - | BACTEC | MIC bound | >12.5 µg/mL
O=c1cc(-c2ccc(Oc3c(-c4cccc([N+](=O)[O-])c4)oc4ccccc4c3=O)cc2)oc2ccccc12 | - | - | - | - | EC50 | <12.5 µg/mL
O=C1C2=C(c3ccccc31)C(c1ccccc1Cl)NC(=S)N2 | 12.5 µg/mL | H37Rv | - | BACTEC | inhibition | 10%
CC(COc1ccccc1)NC(C)C(O)c1ccc(O)cc1 | - | - | - | - | MIC50 | >128 µg/mL
O=[N+]([O-])c1ccc(Oc2cnc3nc(-c4ccccc4F)[nH]c3c2)cc1 | - | H37Rv | - | resazurin / absorbance | MIC80 | 2.3 µM

Percent inhibition refers to the dose given; in toxicity tests it is the harm to the cells. ECn is the concentration giving n% inhibition of infection, replication or growth. MIC bound comes from a single tested concentration. Rows are shuffled and stem from different studies. Blank or dashed fields: not listed here.